Tested on: rat primary cortical neurons
Assay: Neuroprotection against OA-induced toxicity in rat primary cortical neuronal cultures (MTT)
Settings: OA 10 nM alone

Question: With `C=C1[C@@H](O)[C@@H]2O[C@]3(CC[C@H](/C=C/[C@@H](C)[C@@H]4CC(C)=C[C@@]5(O[C@H](C[C@@](C)(O)C(=O)O)CC[C@H]5O)O4)O3)CC[C@H]2O[C@@H]1[C@@H](O)C[C@H](C)[C@H]1O[C@@]2(CCCCO2)CC[C@H]1C` as the compound, how does the “reduction of cell viability by the toxin” value read?
Answer: 50%
